This note sets out measurements from ChEMBL document CHEMBL3407396, “Discovery of non-oxime reactivators using an in silico pharmacophore model of reactivators for DFP-inhibited acetylcholinesterase” (2015).

Active and inactive are the calls of the source. The calls are words filed in the database; no cut-off is given here.

The assay relates to Cavia porcellus. As to the kind of experiment: Efficacy against diisopropylfluorophosphate-induced neuropathology in guinea pigs assessed as seizure strength treated with 0.026 mg/kg, ip pyridostigmine bromide after 20 mins 8 mg/kg DFP followed by 2 mg/kg atropine methyl bromide treated before 13 to 16 mg/kg of compound auto-injection over ….

On to `O=[N+]([O-])c1ccc(NS(=O)(=O)c2ccc(Cl)cc2)cc1`, for which the result was inactive.

Turning to `C[n+]1ccccc1C=NO`, the outcome was inactive. Next, `O=[N+]([O-])c1ccc(OS(=O)(=O)c2ccccc2)c(Cl)c1`: “Active”; `CS(=O)(=O)SCCOC(=O)Nc1ccccc1`: “Active”.

With `NC(=O)CCNCCSC(=O)c1ccccc1`, the result was inactive.
